Series [1] relates to Influenza A/Mississippi/03/2001 (H1N1) H275Y (A/MS-H275Y) virus.
For series [2], the system named is A/Hong Kong/2369/2009 (H1N1) H275Y (A/HK-H275Y) virus.

The structures appear in SMILES notation.

Regarding `CCC(CC)O[C@@H]1C=C(C(=O)O)C[C@H](N)[C@H]1NC(C)=O` [Oseltamivir Carboxylate, Oseltamivir carboxylate], the “SI (CC50/EC50)” value in series [1] and in series [2] was 0 each time.

These data come from PMC3465485 (Antiviral research, 2012).
